From patent US20110003337A1

Molecular target: CD30 expressed on A431/CD30 transfected cells (human) (UniProt P28908)
Test: cell-based or functional assay

“T427(di)-PE38 (T427 Inclonal with PE38 fused to the antibody heavy chain) (from UniProt P11439 278-638)” showed an IC50 of cell growth inhibition (MTT assay, 48 h, A431/CD30 cells) of 0.03 nM.
